Results of unrelated studies side by side (data: NIAID ChemDB).

All rows: tests in culture; species: HIV-1; cells: MT-4; read by: MTT; read-out: EC50

Blank or dashed fields: not listed here. ECn: concentration that inhibits the pathogen or its effect by n%. Lines come from different laboratories, so protocols vary.

structure,mutations,strain or isolate,result
Cc1ccc(-c2c(C)c3c(c(C)c2[C@H](OC(C)(C)C)C(=O)O)N(S(C)(=O)=O)Cc2cc(F)ccc2-3)cc1,T174I,-,0.36 µM
Nc1cc(O)ccc1-c1nnc2sc(-c3cc4ccccc4oc3=O)nn12,-,IIIB,>108.3 µg/mL
CCc1c(Cc2ccc(OC)c(OC)c2)n(COCCc2ccccc2)c(=O)[nH]c1=O,K103R/V179D/P225H,EFVR,>73 µM
CCc1c(Cc2cc(C)cc(C)c2)n(COCC#Cc2cc(C(F)(F)F)cc(C(F)(F)F)c2)c(=O)[nH]c1=O,K103N + Y181C,IIIB,>70 µM
Cc1cc(/C=C/C#N)cc(C)c1Oc1nc(NC2CCN(Cc3ccccc3C#N)CC2)nc2ccsc12,NNRTI-resistant (RT F227L V106A),IIIB,0.0378 µM
CCc1c(Cc2cc(C)cc(C)c2)n(COCC#Cc2ccc(N)cc2)c(=O)[nH]c1=O,EFV-resistant (K103R V179D P225H),IIIB,6 µM
Cc1cc(C#N)cc(C)c1Oc1nc(NC2CCN(Cc3ccc(S(N)(=O)=O)cc3)CC2)nc2sccc12,NNRTI-resistant (RT Y181C),IIIB,0.00764 µM
Clc1ccc(-c2nnc3sc(-c4cccnc4)nn23)cc1Cl,-,IIIB,>80.05 µg/mL
Cc1ccnc2c1NC(=O)c1cccnc1N2C1CC1,-,IIIB,0.08 µM
CCOP(=O)(OCC)C(N[C@@H](Cc1ccccc1)[C@H](O)CN(CC(C)C)S(=O)(=O)c1ccc(OC)cc1)c1ccc2c(c1)OCO2,-,IIIB,>13.2 µg/mL
CCc1c(Cc2cc(C)cc(C)c2)n(COCC#Cc2ccccc2C(F)(F)F)c(=O)[nH]c1=O,EFV-resistant (K103R V179D P225H),IIIB,>25 µM
Nc1ccc(-c2nn3c(-c4ccc(Cl)c(Cl)c4)nnc3s2)cc1,-,IIIB,>19.61 µg/mL
N#Cc1ccc(Nc2nc(Oc3c(F)cc(-c4ccc(C#N)cc4)cc3F)c3sccc3n2)cc1,F227L V106A,IIIB,>7.23 µM
CCc1c(Cc2cc(C)cc(C)c2)n(COCC2CC2)c(=O)[nH]c1=O,Y181C,N119,5.1 µM
Cc1cc(C#N)cc(C)c1Oc1nc(NC2CCN(Cc3ccc(S(N)(=O)=O)cc3)CC2F)nc2ccsc12,NNRTI-resistant (RT L100I),IIIB,0.00894 µM
CCc1c(Cc2cc(C)cc(C)c2)n(COCC#Cc2ccc([N+](=O)[O-])cc2)c(=O)[nH]c1=O,WT,IIIB,0.03 µM
Cc1ccc(-c2c(C)c3c(c(C)c2[C@H](OC(C)(C)C)C(=O)O)N(S(C)(=O)=O)Cc2cc(C(F)(F)F)ccc2-3)cc1,T174I,-,0.0073 µM
CCc1c(Cc2ccc(C)cc2)n(COCCCc2ccccc2)c(=O)[nH]c1=O,K103R/V179D/P225H,EFVR,>43 µM
Nn1c(-c2ccc(O)c(Br)c2)n[nH]c1=S,-,IIIB,>75.4 µg/mL
CCc1c(Cc2ccccc2)n(COCCc2ccccc2)c(=O)[nH]c1=O,Y181C,N119,>43 µM
Cc1cc(/C=C/C#N)cc(C)c1Oc1nc(NC2CCN(Cc3ccccc3Br)CC2)nc2ccsc12,NNRTI-resistant (RT K103N),IIIB,0.0451 µM
CCc1c(Cc2ccc(C)cc2)n(COCc2ccccc2)c(=O)[nH]c1=O,-,IIIB,1.1 µM
COc1c(O)cc2ccc(=O)oc2c1-c1c(O)ccc2ccc(=O)oc12,MDR (74V 41L 106A 215Y),-,12 µM
CCOCn1c(Cc2ccc(C)cc2)c(CC)c(=O)[nH]c1=O,K103R/V179D/P225H,EFVR,>100 µM
CCc1c(Cc2cc(C)cc(C)c2)n(COCC#CC#CCO)c(=O)[nH]c1=O,K103N + Y181C,IIIB,1.7 µM
N#Cc1ccc(Nc2nc(Oc3ccc(-c4ccc(C#N)cc4)c(C(F)(F)F)c3)c3sccc3n2)cc1,-,IIIB,0.5262 µM
Cc1cc(/C=C/C#N)cc(C)c1Oc1nc(NC2CCN(Cc3ccc(Br)cc3)CC2)nc2ccsc12,NNRTI-resistant (RT F227L V106A),IIIB,0.161 µM
CCOP(=O)(OCC)C(N[C@@H](Cc1ccccc1)[C@H](O)CN(CC(C)C)S(=O)(=O)c1ccc(OC)cc1)c1ccccc1,-,ID12,>13.25 µg/mL
Nn1c(-c2cccc(Br)c2)n[nH]c1=S,-,IIIB,>75.4 µg/mL
CCOC(=O)[C@H](C)NC(O)(Oc1ccccc1)Oc1nc(N(C)C)nc(C(C)c2c(F)cccc2F)c1C,K103N + Y181C,-,>40 µM
CCc1c(Cc2cc(C)cc(C)c2)n(COCC#Cc2ccc(CO)cc2)c(=O)[nH]c1=O,EFV-resistant (K103R V179D P225H),IIIB,10 µM
Nn1c(-c2ccc(O)c(Cl)c2Cl)n[nH]c1=S,-,IIIB,>72.83 µg/mL
Cc1cc(C#CCCO)cc(C)c1Oc1ccnc(Nc2ccc(C#N)cc2)n1,E138K,IIIB,0.05 µM
CCOP(=O)(OCC)C(N[C@@H](Cc1ccccc1)[C@@H](O)CN(CC(C)C)S(=O)(=O)c1ccc(OC)cc1)c1ccc(C)cc1,-,ROD,>4.94 µg/mL
Cc1cc(-c2ccc(C#N)cc2)cc(Cl)c1Oc1nc(Nc2ccc(C#N)cc2)nc2ccsc12,K103N,IIIB,0.0304 µM
CCc1c(Cc2cc(C)cc(C)c2)n(COCC#Cc2cc3ccccc3c3ccccc23)c(=O)[nH]c1=O,EFV-resistant (K103R V179D P225H),IIIB,>80 µM
CCOP(=O)(OCC)C(N[C@@H](Cc1ccccc1)[C@@H](O)CN(CC(C)C)S(=O)(=O)c1ccc(OC)cc1)c1ccc([N+](=O)[O-])cc1,-,IIIB,>3.94 µg/mL
Cc1cc(C#N)cc(C)c1Oc1nc(NC2CCC(NCc3ccc(F)cc3)CC2)nc2ccsc12,NNRTI-resistant (RT L100I),IIIB,0.919 µM
CCOP(=O)(OCC)C(N[C@@H](Cc1ccccc1)[C@H](O)CN(CC(C)C)S(=O)(=O)c1ccc(OC)cc1)c1ccc([N+](=O)[O-])cc1,-,ROD,>14.24 µg/mL
Cc1ccc(-c2c(C)c3c(c(C)c2[C@H](OC(C)(C)C)C(=O)O)N(S(C)(=O)=O)Cc2cccc(F)c2-3)c(O)c1,-,-,0.02 µM
CCc1c(Cc2ccc(OC)c(OC)c2)n(COCc2ccccc2)c(=O)[nH]c1=O,K103R/V179D/P225H,EFVR,>80 µM

Again, the opening 5 rows:

structure	mutations	strain or isolate	result
Cc1ccc(-c2c(C)c3c(c(C)c2[C@H](OC(C)(C)C)C(=O)O)N(S(C)(=O)=O)Cc2cc(F)ccc2-3)cc1	T174I	-	0.36 µM
Nc1cc(O)ccc1-c1nnc2sc(-c3cc4ccccc4oc3=O)nn12	-	IIIB	>108.3 µg/mL
CCc1c(Cc2ccc(OC)c(OC)c2)n(COCCc2ccccc2)c(=O)[nH]c1=O	K103R/V179D/P225H	EFVR	>73 µM
CCc1c(Cc2cc(C)cc(C)c2)n(COCC#Cc2cc(C(F)(F)F)cc(C(F)(F)F)c2)c(=O)[nH]c1=O	K103N + Y181C	IIIB	>70 µM
Cc1cc(/C=C/C#N)cc(C)c1Oc1nc(NC2CCN(Cc3ccccc3C#N)CC2)nc2ccsc12	NNRTI-resistant (RT F227L V106A)	IIIB	0.0378 µM